# Measurements taken from ChEMBL document CHEMBL1201862, “PubChem BioAssay data set” (2004).
# Active and inactive are the calls of the source. How the calls were made is not given here.
# Assay: A Cell Based Secondary Assay To Explore Cytotoxicity of Compounds that Sensitize Mycobacterium Tuberculosis to Beta-Lactam Antibiotics.
# Assay type: functional
smiles,measurement,value
CCCCCCCCCCCCCCCC[N+](C)(C)CCN(Cc1ccc(OC)cc1)c1ncccn1 [THONZONIUM BROMIDE],CC50,active: 10.6 µM
